Compound potency records, mixed from different reports. Data source: NIAID ChemDB in PubChem.

Common to all: tests in culture

Neighbouring rows are from separate reports. MIC50, MIC90 and the like: level of inhibition, or share of isolates inhibited. ECn is the concentration giving n% inhibition of infection, replication or growth. Inhibition is in % at the dose shown (toxicity tests: loss of growth or viability). Blank or dashed fields: not listed here.

structure | species | read-out | strain or isolate | read by | tested at | cells | value
O=S(=O)([O-])c1cccc(O)c1 | Adenovirus | inhibition | TYPE 3 | cytopathic effect | 5 µg/mL | Human embryonic lung cells | 0%
Cc1ccc(-n2cc(C(C)(C)O)nn2)cc1C | Candida albicans | inhibition | URM 4606 | broth dilution | 2048 µg/mL |  | 0%
Oc1ccccc1N=Cc1ccc(O)c(O)c1O | Cryptococcus gattii | MIC99 | ATCC 24065 |  |  |  | 11.3 µg/mL
O=S(=O)(O)c1cc(O)c2c(O)c(N=Nc3ccccc3)c(S(=O)(=O)O)cc2c1 | Herpes simplex virus | inhibition |  | cytopathic effect | 50 µg/mL | Human conjunctiva cells | 100%
O=C(NCc1ccc(Cl)cc1)c1c[nH]c2ccc(C#CCO)cc2c1=O | Varicella zoster virus | EC50 | MAG | plaque count |  |  | 0.4 µM
Cn1cc(C(=O)NCc2ccc(Cl)cc2)c(=O)c2cc(CN3CCOCC3)ccc21 | Varicella zoster virus | inhibition | CA varicella isolate | plaque count | 2.2 µM | HFF | 90%
O=C(NNc1ccccn1)Nc1cc(C(F)(F)F)cc(C(F)(F)F)c1 | Escherichia coli | MIC | ES142 |  |  |  | >300 µM
O=S(=O)([O-])c1ccc(NS(=O)(=O)c2ccccc2)c2c(S(=O)(=O)[O-])cccc12 | Adenovirus | inhibition | TYPE 3 | cytopathic effect | 50 µg/mL | Human amnion AV3 cells | 0%
C=CCc1ccc(OC)c(OC)c1 | Candida tropicalis | MIC90 | 341 | turbidity |  |  | 345 µg/mL
Nc1ccc(S(=O)(=O)[O-])c2c(S(=O)(=O)[O-])ccc(O)c12 | Adenovirus | inhibition | TYPE 3 | cytopathic effect | 10 µg/mL | Human amnion AV3 cells | 0%
CC(C)(O)c1cn(-c2ccc([N+](=O)[O-])cc2)nn1 | Candida parapsilosis | inhibition | URM 3627 | broth dilution | 2048 µg/mL |  | 0%
Nc1cc(S(=O)(=O)[O-])cc2cc(S(=O)(=O)[O-])ccc12 | Adenovirus | inhibition | TYPE 3 | cytopathic effect | 5 µg/mL | Human amnion AV3 cells | 0%
Nc1nc2c(ncn2COCCO)c(=O)[nH]1 | Varicella zoster virus | inhibition | Asahikawa | plaque count | 10 µg/mL | HELF | 100%
CC(C)(O)c1cn(-c2cccc3ccccc23)nn1 | Candida krusei | inhibition | URM 109 | broth dilution | 2048 µg/mL |  | 0%
Cc1nc(NCCCCNc2ccnc3cc(Cl)ccc23)nc(-c2ccccc2)c1C(=O)OC(C)C | Cryptococcus gattii | MIC99 | 196L/03 |  |  |  | 8 µg/mL
Cc1cn([C@@H]2O[C@H](CO)[C@@H](O)[C@@H]2F)c(=O)nc1N | Varicella zoster virus | inhibition | YS | plaque count | 0.01 µg/mL | HELF | 78%
O=[N+]([O-])c1ccc(C=Nc2ccccc2O)cc1 | Cryptococcus gattii | MIC99 | LMM 818 |  |  |  | 8 µg/mL
CCC(CC)O[C@@H]1C=C(C(=O)O)C[C@H](N)[C@H]1NC(C)=O | Influenza A virus | EC50 | Influenza A H3N2 isolate C34C | plaque count |  | MDCK | ≤0.01 µg/mL
CCOC(=O)c1c(C)nc(NCCCNc2ccnc3cc(Cl)ccc23)nc1-c1ccccc1 | Cryptococcus neoformans | MIC99 | LMM 820 |  |  |  | 8 µg/mL
O=c1[nH]c(=O)n([C@H]2C[C@H](O)[C@@H](CO)O2)cc1/C=C/Br | Varicella zoster virus | inhibition | HIRAI | plaque count | 0.1 µg/mL | HELF | 100%
COc1cc(-c2ccc(N=Nc3ccc4c(S(=O)(=O)O)cc(S(=O)(=O)O)c(N)c4c3O)c(OC)c2)ccc1N=Nc1ccc2c(S(=O)(=O)O)cc(S(=O)(=O)O)c(N)c2c1O | Herpes simplex virus | inhibition |  | cytopathic effect | 50 µg/mL | Human amnion AV3 cells | 100%
CC(C)(O)c1cn(-c2ccc3ccccc3c2)nn1 | Candida albicans | inhibition | URM 4385 | broth dilution | 2048 µg/mL |  | 0%
CCO/N=C/c1ccc(OCCC2CCN(c3ccc(Cl)nn3)CC2)cc1 | Rhinovirus | EC50 | 41467 (ICAM-1 receptor group 89) | neutral red |  | KB | 0.002 µM
O=C(NCCO)NNC(=O)Nc1cc(C(F)(F)F)cc(C(F)(F)F)c1 | Escherichia coli | MIC | ES142 |  |  |  | >300 µM
O=c1[nH]c(=O)n([C@@H]2O[C@H](CO)[C@@H](O)[C@@H]2O)cc1/C=C/Br | Varicella zoster virus | inhibition | YS | plaque count | 0.0001 µg/mL | HELF | 0%
Oc1ccccc1N=Cc1cccc(O)c1O | Cryptococcus gattii | MIC99 | 135L/03 |  |  |  | 5.7 µg/mL
O=C(Nc1ccc(C(F)(F)F)cc1)NN(CC(O)CN1CCOCC1)C(=O)Nc1ccc(C(F)(F)F)cc1 | Escherichia coli | MIC | ES142 |  |  |  | >300 µM
O=S(=O)([O-])c1ccc2c(S(=O)(=O)[O-])cc(S(=O)(=O)[O-])cc2c1 | Adenovirus | inhibition | TYPE 3 | cytopathic effect | 10 µg/mL | Human embryonic lung cells | 0%
CCOC(=O)/C=C/[C@H](C[C@@H]1CCNC1=O)NC(=O)[C@@H](CC(=O)[C@@H](NC(=O)c1cc(C)on1)C(C)C)Cc1ccc(F)cc1 | Rhinovirus | EC50 | Isolate 7 | cytopathic effect / visual reading |  | OHIO HELA-I | 0.02 µg/mL
O=S(=O)(O)c1cccc2c(O)cccc12 | Adenovirus | inhibition | TYPE 3 | cytopathic effect | 50 µg/mL | Human amnion AV3 cells | 0%
CCC(CC)[C@H](NC(C)=O)[C@@H]1[C@H](O)[C@@H](C(=O)O)C[C@H]1N=C(N)N | Influenza A virus | EC50 | H1N1 A/Bayern/09/95 |  |  | MDCK | 1 µM
Cc1cn([C@@H]2O[C@H](CO)[C@@H](O)[C@@H]2O)c(=O)[nH]c1=O | Varicella zoster virus | inhibition | Asahikawa | plaque count | 0.1 µg/mL | HELF | 0%
O=C(Nc1ccc2c(O)c(N=Nc3ccc(N=Nc4ccc(S(=O)(=O)O)cc4)cc3)c(S(=O)(=O)O)cc2c1)c1ccccc1 | Herpes simplex virus | inhibition |  | cytopathic effect | 5 µg/mL | Human amnion AV3 cells | 0%
CC(C)c1nc2ccccc2c(=O)n1NC(=O)Nc1cc(C(F)(F)F)cc(C(F)(F)F)c1 | Klebsiella pneumoniae | MIC | KL21 |  |  |  | >300 µM

The first 3 rows once more:

| structure | species | read-out | strain or isolate | read by | tested at | cells | value |
|---|---|---|---|---|---|---|---|
| O=S(=O)([O-])c1cccc(O)c1 | Adenovirus | inhibition | TYPE 3 | cytopathic effect | 5 µg/mL | Human embryonic lung cells | 0% |
| Cc1ccc(-n2cc(C(C)(C)O)nn2)cc1C | Candida albicans | inhibition | URM 4606 | broth dilution | 2048 µg/mL |  | 0% |
| Oc1ccccc1N=Cc1ccc(O)c(O)c1O | Cryptococcus gattii | MIC99 | ATCC 24065 |  |  |  | 11.3 µg/mL |